Compound potency records, mixed from different reports. Data source: NIAID ChemDB in PubChem.

Common to all: tests in culture; species: Candida albicans; measure: MIC

Rows are shuffled and stem from different studies.

smiles	strain or isolate	read by	setting	value
O=C(COc1ccc(Br)cc1)N=Nc1c(O)[nH]c2cccc(Cl)c12	-	-	-	>1.56 µg/mL
O=C1CC(Nc2ccc(Oc3ccc(Cl)cc3)c(Cl)c2)C(=O)N1c1cccc2ccccc12	-	-	-	>200 µg/mL
O[C@H]1[C@H]2c3cc4c(cc3CN3CCC(=C[C@@H]1O)[C@H]23)OCO4	ATCC 10231	broth dilution	-	3.56–57 µg/mL
Cc1ccc(S(=O)(=O)NC(=O)Nc2ccc(S(=O)(=O)Nc3nnc(S(N)(=O)=O)s3)cc2)cc1	C316	-	-	84 µg/mL
O=C(Cc1ccc(Cl)cc1)Nc1cc([N+](=O)[O-])ccc1O	-	-	-	12.5 µg/mL
Cc1ccc(N2C(=O)C[C@@H](C)C2=O)cc1	ATCC 10231	broth dilution / turbidity	-	62.5 µg/mL
Cc1ccc(C2CC(c3cccs3)=NN2C(=O)CSC(=S)N2CCCCC2)cc1	Clinical isolates	-	-	250 µg/mL
O=C(c1ccc([N+](=O)[O-])cc1)n1c(-c2ccc(Cl)cc2)nc2ccccc21	-	-	-	4 µg/mL
Cc1ccc(C2CC(c3cccs3)=NN2C(=O)CSC(=S)N2CCCC2)cc1	Clinical isolates	-	-	250 µg/mL
NS(=O)(=O)c1ccc(NC(=O)N=Nc2c(O)[nH]c3cccc(Cl)c23)cc1	-	-	-	>1.56 µg/mL
O=[N+]([O-])c1ccc2oc(Cc3ccc(Cl)cc3)nc2c1	-	-	-	12.5 µg/mL
O=C1CC(Nc2ccc(Oc3ccc(Cl)cc3)c(Cl)c2)C(=O)N1c1ccc(Sc2ccc([N+](=O)[O-])cc2)cc1	-	-	-	>200 µg/mL
O=C(c1ccc([N+](=O)[O-])cc1)n1c(-c2cccc([N+](=O)[O-])c2)nc2ccccc21	-	-	-	18 µg/mL
CN1C(=O)CC(Nc2ccc(Oc3ccc(Cl)cc3)c(Cl)c2)C1=O	-	-	-	>200 µg/mL
c1ccc2c(c1)nc1ncc3c(n12)CCCCCC3	-	-	-	25 µg/mL
COc1cc(OC)cc(C(=O)Nc2ccc(C)cc2O)c1	-	-	-	25 µM
O=C(c1ccc([N+](=O)[O-])cc1)n1c(-c2ccc([N+](=O)[O-])cc2)nc2ccccc21	-	-	-	9 µg/mL
C=C1C2CC[C@H](C=O)C(O)(C=O)[C@@]2(C)CC[C@@H]1C	B311	-	-	0.39 µg/mL
CN(C)c1ccc(C2CC(c3cccs3)=NN2C(=O)CSC(=S)N2CCCCC2)cc1	Clinical isolates	-	-	125 µg/mL
O=C(c1ccc([N+](=O)[O-])cc1)n1c(-c2ccccc2[N+](=O)[O-])nc2ccccc21	-	-	-	36 µg/mL
C[C@@H]1CC(=O)N(Cc2ccccc2)C1=O	ATCC 10231	broth dilution / turbidity	-	15.6 µg/mL
O=C1CC(Nc2ccc(Oc3ccc(Cl)cc3)c(Cl)c2)C(=O)N1c1ccc(Cl)cc1	-	-	-	40 µg/mL
COc1ccc(/C=C2\CSc3ccccc3C2=O)cc1	-	-	-	6 µg/mL
O=C(c1ccc([N+](=O)[O-])cc1)n1c(-c2ccc(O)cc2)nc2ccccc21	-	-	-	35 µg/mL
Oc1cccc(O)c1O	20 strains	broth dilution / visual reading	-	80 µg/mL
COc1ccc(C2CC(c3cccs3)=NN2C(=O)CSC(=S)N2CCCCC2)cc1	Clinical isolates	-	-	250 µg/mL
CCCCOc1ccc(N2C(=O)CC(Nc3ccc(Oc4ccc(Cl)cc4)c(Cl)c3)C2=O)cc1	-	-	-	40 µg/mL
O=C1/C(=C/c2ccc(Cl)cc2)COc2ccccc21	-	-	-	25 µg/mL
O=C(CSC(=S)N1CCCC1)N1N=C(c2cccs2)CC1c1ccc(Cl)cc1	Clinical isolates	-	-	250 µg/mL
Clc1ccc(C(Cn2ccnc2)OCc2csc3c(Cl)cccc23)c(Cl)c1	-	-	-	1.02 µg/mL
O=C(COc1ccccc1)N=Nc1c(O)[nH]c2cccc(Cl)c12	-	-	-	>1.56 µg/mL
O=C(CSC(=S)N1CCCCC1)N1N=C(c2cccs2)CC1c1ccc(F)cc1	Clinical isolates	-	-	500 µg/mL
C[C@@H]1C(=O)N(Cc2ccccc2)C(=O)[C@@H]1C	ATCC 10231	broth dilution / turbidity	-	31.3 µg/mL
Nc1ncc2c(n1)CCCCCC2	-	-	-	50 µg/mL
Cc1ccc(C)c(C(=O)Nc2ccc([N+](=O)[O-])cc2O)c1	-	-	-	25 µM
O=C(c1ccccc1Br)n1c(-c2ccc(O)cc2)nc2ccccc21	-	-	-	4 µg/mL
CN1C(C(=O)Nc2nccs2)=C(O)c2ccccc2S1(=O)=O	1760	-	biofilm	>1000 µg/mL
NCc1ccc(S(N)(=O)=O)cc1	C316	-	-	>100 µg/mL
O=C1CC(Nc2ccc(Oc3ccc(Cl)cc3)c(Cl)c2)C(=O)N1Cc1ccccc1	-	-	-	200 µg/mL
COc1ccccc1C(=O)Nc1ccc(C)cc1O	-	-	-	100 µM
O=C(O)c1ccccc1-c1nc2ccccc2n1C(=O)c1ccc([N+](=O)[O-])cc1	-	-	-	33 µg/mL
Cc1ccccc1N1C(=O)C[C@@H](C)C1=O	ATCC 10231	broth dilution / turbidity	-	125 µg/mL
Cc1ccc(NC(=O)c2ccco2)c(O)c1	-	-	-	25 µM
Cc1c(O)cccc1C(=O)N[C@@H](CSc1ccccc1)[C@H](O)CN1C[C@H]2CCCC[C@H]2C[C@H]1C(=O)NC(C)(C)C	I107A	-	-	64 µg/mL
COc1ccc(N2C(=O)C[C@@H](C)C2=O)cc1	ATCC 10231	broth dilution / turbidity	-	125 µg/mL
NS(=O)(=O)c1ccc(NC(=O)N=Nc2c(O)[nH]c3cc(Cl)ccc23)cc1	-	-	-	>1.56 µg/mL
C[C@@H]1CC(=O)N(c2ccc(Br)cc2)C1=O	ATCC 10231	broth dilution / turbidity	-	125 µg/mL
COc1ccc(/C=C2\COc3ccc(SC)cc3C2=O)cc1	-	-	-	25 µg/mL
COc1cc(OC)cc(C(=O)Nc2ccc([N+](=O)[O-])cc2O)c1	-	-	-	50 µM
Clc1ccc(COC(Cn2ccnc2)c2ccc(Cl)cc2Cl)c(Cl)c1	ATCC28838	-	-	6.25 µg/mL
O=C(Cc1ccc(Br)cc1)Nc1ccc([N+](=O)[O-])cc1O	-	-	-	100 µM
COc1ccc2cc3[n+](cc2c1OC)CCc1cc2c(cc1-3)OCO2	ATCC11651	-	-	250 µg/mL
O=C(Cc1ccc([N+](=O)[O-])cc1)Nc1cc([N+](=O)[O-])ccc1O	-	-	-	25 µg/mL
COc1ccc(C(=O)Nc2ccc(C)cc2O)cc1	-	-	-	50 µM
C[C@H]1[C@H](O)[C@@H](C)/C=C/C=C/C=C/C=C/C=C/C=C/C=C/[C@H](O[C@@H]2O[C@H](C)[C@@H](O)[C@H](N)[C@@H]2O)C[C@@H]2O[C@](O)(C[C@@H](O)C[C@@H](O)CC[C@H](O)[C@@H](O)C[C@@H](O)CC(=O)O[C@H]1C)C[C@H](O)[C@H]2C(=O)O	A26	-	-	0.25 µg/mL
COc1ccc(C2CC(c3cccs3)=NN2C(=O)CSC(=S)N2CCCC2)cc1	Clinical isolates	-	-	250 µg/mL
CCOc1ccc(CC(=O)Nc2cc([N+](=O)[O-])ccc2O)cc1	-	-	-	12.5 µg/mL

Two numbers with a dash give a range or band. An empty or dashed field is not shown.